Source: PubChem BioAssay AID504761 (Drosophila RNAi Screening Center, 2011)
Aim: 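Genome-wide fly cell screen for genes dengue virus requires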 (primary screen). Cell system: D.Mel-2 cells from Drosophila. Knock-down reagent: long dsRNA against Drosophila genes. Treatment: infection with dengue virus type 2; dose and infection time not stated. Read-out: 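Cells stained for dengue envelope protein and imaged; percent of infected cells per well on duplicate plates, ranked by infection, with stained nuclei counted for cell number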. Scale: infection score: higher = more virus-infected cells; cell count: higher = more cells in the well. Hit rule: 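Very low infection ranking in both replicate wells (chance probability at most 0.065), then a retest showing infection dropped 1.5-fold or more at p below 0.05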. Calls: active = confirmed: knock-down lowers infection; inactive = not picked or not confirmed.
The deposit covers about 22,000 reagents; shown is an unselected part of those that have a named target and a result. Over the whole deposit, 116 (0.52%) were called active. 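Calls depend on retest data that are not deposited; infection was ranked per plate without normalising between plates; the unit of the infection score is not given.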 Raw values vary from plate to plate and are shown uncorrected. Reagent sequences are not shown. Not given: the amount of reagent, the time to read-out.

no.	Target gene	DRSC id	infection score, replicate 1	infection score, replicate 2	cell count, replicate 1	cell count, replicate 2	activity call
1	Appl (GeneID 31002)	DRSC17728	0.99	3.72	302	6980	inactive
2	Appl (GeneID 31002)	DRSC27476	14.3	7.96	5371	6317	inactive
3	msn (GeneID 44030)	DRSC07990	1.13	1.39	6364	5884	inactive
4	msn (GeneID 44030)	DRSC08498	6.49	2.54	6298	6074	inactive
5	msn (GeneID 44030)	DRSC25188	9.45	2.42	5924	6366	inactive
6	CG15387 (GeneID 33403)	DRSC00401	2.67	5.49	6364	6139	inactive
7	CG14853 (GeneID 41771)	DRSC14977	1.25	5.47	6585	6067	inactive
8	CG14853 (GeneID 41771)	DRSC21528	1	7.27	5601	6151	inactive

Not a retest: entries from further up.
no.	Target gene	DRSC id	infection score, replicate 1	infection score, replicate 2	cell count, replicate 1	cell count, replicate 2	activity call
5	msn (GeneID 44030)	DRSC25188	9.45	2.42	5924	6366	inactive
6	CG15387 (GeneID 33403)	DRSC00401	2.67	5.49	6364	6139	inactive
7	CG14853 (GeneID 41771)	DRSC14977	1.25	5.47	6585	6067	inactive

More entries follow.
no.	Target gene	DRSC id	infection score, replicate 1	infection score, replicate 2	cell count, replicate 1	cell count, replicate 2	activity call
9	CG30355 (GeneID 246561)	DRSC21958	19.6	0.56	6046	6273	inactive
10	Nhe1 (GeneID 33167)	DRSC00762		4.74	562	738	inactive
11	sturkopf (GeneID 38150)	DRSC08637	7.44	15.2	6116	5437	inactive
12	sturkopf (GeneID 38150)	DRSC29932	5.18	10.1	6058	6406	inactive
13	CG10927 (GeneID 37135)	DRSC06014	14.3	13.7	6244	4710	inactive
14	CG10927 (GeneID 37135)	DRSC29800	4.43	9.21	6119	5829	inactive
15	ste24a (GeneID 36908)	DRSC07314	12.2	18.8	4826	2625	inactive
16	ste24a (GeneID 36908)	DRSC26491	1.92	1.17	6473	5959	inactive
17	Cyp4ae1 (GeneID 31193)	DRSC18455	1.75	2.28	6625	6052	inactive
18	Cyp4ae1 (GeneID 31193)	DRSC27698	11.7	28.2	6921	2732	inactive
19	Nmda1 (GeneID 36419)	DRSC07479	6.06	9.64	6205	6195	inactive
20	Nmda1 (GeneID 36419)	DRSC26357	6.48	2.95	6034	6433	inactive
21	CG8369 (GeneID 50005)	DRSC16413	3.55	9.33	5921	6366	inactive
22	CG13423 (GeneID 37315)	DRSC06386	1.64	3.63	6172	6089	inactive
23	hoe1 (GeneID 249663)	DRSC00265	4.14	2.91	5577	5799	inactive
24	hoe1 (GeneID 249663)	DRSC00333			509	533	inactive
25	hoe1 (GeneID 249663)	DRSC00353			504	456	inactive
